One test has as its system Vero cells. Kind of test: Vero cell cytotoxicity, resazurin dye reduction assay. The settings on record: Vero cell growth inhibition, 48 h then resazurin overnight. (Resazurin is reduced to fluorescent resorufin, in cell work by metabolically active cells.)
In a further test the target is M.tb CdnP (Mycobacterium tuberculosis, UniProt P71615). Kind of test: Luminescence-based AMP-Glo CdnP enzyme inhibition assay with c-di-AMP substrate.

Chains of the proteins cited; added tags and fusions are not shown.
UniProt P71615, whole entry: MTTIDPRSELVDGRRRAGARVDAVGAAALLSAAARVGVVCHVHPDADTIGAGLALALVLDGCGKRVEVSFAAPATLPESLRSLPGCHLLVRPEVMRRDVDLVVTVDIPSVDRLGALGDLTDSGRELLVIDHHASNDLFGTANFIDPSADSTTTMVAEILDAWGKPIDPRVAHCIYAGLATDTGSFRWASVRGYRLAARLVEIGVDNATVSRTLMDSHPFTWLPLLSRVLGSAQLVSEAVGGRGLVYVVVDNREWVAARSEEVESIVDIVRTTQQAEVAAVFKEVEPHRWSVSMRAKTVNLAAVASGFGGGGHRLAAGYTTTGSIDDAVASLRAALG

In brackets after ≈: the same amount, converted by molar mass.

These results are taken from PMC10783014, “Structure-based virtual screening and in vitro validation of inhibitors of cyclic dinucleotide phosphodiesterases ENPP1 and CdnP” (Microbiology Spectrum, 2023).

What is called IC50 is the midpoint of a concentration-inhibition curve. On to `c1ccc(CN2CN(Cc3ccccc3)CN(Cc3ccccc3)C2)cc1`, for which the “IC50 Vero cells” value in the test with Vero cells was more than 100 mg/L. The “IC50 CdnP” value on M.tb CdnP (c-di-AMP 300 µM, CdnP 5 µM) turned out to be 15 mg/L (≈ 42 µM). For the same compound, on M.tb CdnP (read-out: IC50 CdnP, c-di-AMP 300 µM, CdnP 5 µM), the IC50 worked out at 41.9 µM.

Take `C[N+]1(CCC[N+]2(C)CC3C4CCCCC4=C4CCCCC4C3C2)CCOCC1` (stereo not shown): in the test with Vero cells, the “IC50 Vero cells” value was determined as 100 mg/L.
